Results of unrelated studies side by side (data: NIAID ChemDB).

Shared fields: growth or infection tests; species: HIV-1; endpoint: inhibition

Neighbouring rows are from separate reports. Blank or dashed fields: not listed here. Percent inhibition refers to the dose given; in toxicity tests it is the harm to the cells.

SMILES	strain or isolate	cells	read by	conditions	dose	result
CC(C)[n+]1c[nH]c2c(NCc3ccc(-c4ccccn4)cc3)nc(NC[C@H](O)CO)nc21		U1	luciferase		0.05 µM	<25%
c1cc(CN2CCCNCCNCCCNCC2)ccc1CN1CCCNCCNCCCNCC1	SW12 CLADE C X4	PBMC	p24		0.1 µM	31%
Nc1ncnc2c1ncn2[C@H]1CC[C@@H](CO)O1	LAV-Bru	CEM13 + CEM	ELISA		1 µM	0%
CCNc1cccnc1N1CCN(C(=O)c2cc3cc(OC)ccc3[nH]2)CC1	Seropositive clinical isolate D	PBMC	MTT		1 µM	64%
COc1cc(OC)c2c(O)c3c(=O)cc(C)oc3c(-c3c(OC)cc4cc(O)c5c(=O)cc(C)oc5c4c3OC)c2c1	SF162	TZM-bl	luciferase		10 µM	16.25%
Cc1cn([C@H]2C[C@H](N=[N+]=[N-])[C@@H](CO)O2)c(=O)[nH]c1=O	LAV	U1(HIV-1 (LAV)) + U1	plaque count / syncytia		1 µM	13%
NS(=O)(=O)c1cc2c(cc1Cl)NC(C(Cl)Cl)NS2(=O)=O	LAV	MT-4			100 µg/mL	0%
C[C@H](Cn1cnc2c(N)nc(N)nc21)OCP(=O)(O)O	BaL	Macrophage + Monocytes/macrophages	p24		0.5 µM	99%
CCC(C)C(=O)O[C@@H]1C(=O)/C=C2/C3=CC(=O)O[C@@H](c4ccoc4)[C@]3(C)CC[C@@H]2[C@@]2(C)C(=O)C[C@]1(C)[C@@H]2[C@@H](O)C(=O)OC	NL4-3	SupT1	luciferase / luminescence	pseudotyped	100 µM	97.57%
NC(N)=NCCC[C@@H](C=O)NC(=O)CNC(=O)[C@@H]1CCCN1C(=O)CNC(=O)[C@@H](N)CCCN=C(N)N	IIIB	H9	syncytia		250 µg/mL	0%
CCN1CCCC1CNC(=O)c1cc(S(N)(=O)=O)ccc1OC	LAV	MT-4			100 µg/mL	0%
OCC(S)CS	IIIB-C-3	MOLT-4	RT activity		5 µg/mL	80%
CC(C)=CCOc1c2occc2cc2ccc(=O)oc12	NL4-3 Recombinant VSV-pseudotyped	HeLa	luciferase		50 µM	87.5%
CCCCCCCCCC(=O)O[C@@]12[C@H](OCOC)[C@@H](C)[C@@]3(O)[C@@H](C=C(CO)C[C@]4(O)C(=O)C(C)=C[C@@H]34)[C@@H]1C2(C)C	IIIB	MT-4 + mouse plasma + MT-4	cytopathic effect / MTT		0.1 µg/mL	100%
CCCCC[C@H](O)/C=C/[C@H]1[C@H](O)CC(=O)[C@@H]1C/C=C\CCCC(=O)O	IIIB	C8166	syncytia		40 µM	0%
CC(=O)O[C@H]1C[C@@]2(C)[C@@H](C[C@@H](O)[C@H]3[C@@]4(C)CC[C@@H](O)[C@@H](C)[C@@H]4CC[C@@]32C)/C1=C(\CCC=C(C)C)C(=O)O	CBL-1	C8166	syncytia		50 µg/mL	100%
CN1CC[C@H](c2c(O)cc(O)c3c(=O)cc(-c4ccccc4Cl)oc23)[C@H](O)C1	IIIB	PM1	p24		0.012 µM	84%
COC(=O)C(OC(C)=O)[C@H]1C(C)(C)[C@H](OC(C)=O)[C@]2(O)CC3=C(CC[C@]4(C)C3=CC(=O)O[C@H]4c3ccoc3)[C@@]1(C)C2=O	NL4-3	SupT1	luciferase / luminescence	pseudotyped	20 µM	0%
NCC(=O)NCC(=O)NCC=O	IIIB	H9	p24		250 µg/mL	0%
COc1cc(OC)c2c(O)c3c(c(-c4c(OC)cc5cc6oc(C)cc(=O)c6c(O)c5c4OC)c2c1)OC(C)(O)CC3=O	SF162	TZM-bl	luciferase		10 µM	34.73%
Cc1cn([C@H]2CC[C@@H](CO)O2)c(=O)n(N)c1=O	BRU	CEM-C113 + CEM/C113	cytopathic effect / MTT		100 µM	0%
Nc1ncnc2c1ncn2CCOCP(=O)(O)O	BaL	Macrophage + Monocytes/macrophages	p24		0.5 µM	99%
NC(N)=NCCC[C@H](NC(=O)[C@@H](N)Cc1ccc(O)cc1)C(=O)NCC(=O)N1CCC[C@H]1C(=O)NCC=O	ELI	HUT	p24		250 µg/mL	44.8%
Cc1cn([C@H]2C[C@H](N=[N+]=[N-])[C@@H](CO)O2)c(=O)[nH]c1=O	LAV-1	HT4 + HT4-6C	syncytia		0.0316 µM	72%
COc1cc(OC)c2c(O)c3c(c(-c4c(O)cc5cc6c(c(O)c5c4OC)C(=O)CC(C)(O)O6)c2c1)OC(C)(O)CC3=O	SF162	TZM-bl	luciferase		10 µM	32.38%
Cc1cn([C@H]2C[C@H](N=[N+]=[N-])[C@@H](COP(=O)(O)OC[C@H]3OC(O)[C@@H](O)[C@@H](O)[C@@H]3O)O2)c(=O)[nH]c1=O	LAV-Bru	CEM	RT activity	22 d	25 µM	82%
CCCCCCCCCCCCCC(=O)OC[C@@H](COP(=O)(O)OC[C@@H]1CC[C@H](n2cnc3c(N)ncnc32)O1)OC(=O)CCCCCCCCCCCCC	LAV-Bru	CEM13 + CEM	ELISA		10 µM	90%
COC(=O)C(O)[C@H]1[C@]2(C)C[C@]3(O)[C@@](O)(C(=O)C4=C(CC[C@]5(C)C4=CC(=O)O[C@H]5c4ccoc4)[C@]13C)[C@H]2OC(=O)C(C)C	NL4-3	SupT1	luciferase / luminescence	pseudotyped	20 µM	0%
O=C(O)/C=C/c1ccc[c]([Sb](=[O])([OH])[OH])c1	92BR019 R5 clinical isolate	MAGI	β-galactosidase		10 µM	53.7%
O=C1Nc2ccc(Cl)cc2C(c2ccccc2Cl)=NC1O	LAV	MT-4			10 µg/mL	85%
O=c1oc2ccccc2c(O)c1N=Nc1ccc(-c2nnc(Sc3ccccc3)o2)cc1	NL4-3	HeLa	p24 / ELISA		100 µM	6%
COC(=O)C(O)[C@H]1C(C)(C)[C@H](OC(C)=O)[C@]2(O)[C@@H](OC(=O)C(C)C)[C@@]34O[C@]2(O)[C@]1(C)[C@H]3CC[C@]1(C)C4=CC(=O)O[C@H]1c1ccoc1	NL4-3	SupT1	luciferase / luminescence	pseudotyped	20 µM	0%
Oc1ccc(/C=C/c2cc(O)cc(O)c2)cc1	ddI-resistant (RT K65R/L74V/M184V)	PBMC	p24		5 µM	20%
CN1CCN(CCCN2c3ccccc3Sc3ccc(Cl)cc32)CC1	LAV	MT-4			10 µg/mL	99.4%
Cc1cn([C@H]2C[C@H](N=[N+]=[N-])[C@@H](COP(=O)(O)OC[C@H]3OC(O)[C@H](O)[C@@H](O)[C@@H]3O)O2)c(=O)[nH]c1=O	LAV-Bru	CEM	RT activity	26 d	5 µM	60%
Cc1cn([C@H]2CC[C@@H](CO)O2)c(=O)[nH]c1=O	LAV-Bru	CEM13 + CEM	ELISA		10 µM	50%
CC[C@H](CO)Nc1nc(NCc2ccc(-c3ccccn3)cc2)[n+]2[nH]cc(C(C)C)c2n1		U1	luciferase		0.05 µM	<25%
Cc1cn([C@H]2C[C@H](N=[N+]=[N-])[C@@H](CO)O2)c(=O)[nH]c1=O	JR-FL	Macrophage			1 µM	83%
CCc1c(C)[nH]c(=O)c([N+](=O)[O-])c1Sc1cc(C)cc(C)c1	Isolated virion		RT activity		10 µM	100%
NC12CC3CC(CC(C3)C1)C2	LAV	MT-4			1 µg/mL	37%
Nc1ccn([C@H]2CC[C@@H](CO)O2)c(=O)n1	LAV-1	HT4 + HT4-6C	syncytia		0.001 µM	28%
O=S(=O)([O-])[O-].[O]=[V+2]	BaL	HUT/CCR5 + HUT	p24	7 d	5 µM	36%
CN1C(=O)CN=C(c2ccccc2)c2cc(Cl)ccc21	LAV	MT-4			100 µg/mL	37%
CCCCC[C@H](O)/C=C/[C@H]1C=CC(=O)[C@@H]1CCCCCCC(=O)O	IIIB	C8166	syncytia		20 µM	98%
CC(=O)S[C@@H]1CC2=CC(=O)CC[C@]2(C)[C@H]2CC[C@H]3[C@@H](CC[C@@]34CCC(=O)O4)[C@H]12	LAV	MT-4			100 µg/mL	0%
NCC(=O)N1CCC[C@H]1C(=O)NCC=O	IIIB	H9	p24		25 µg/mL	44.2%

For reference, 3 entries again:

SMILES,strain or isolate,cells,read by,conditions,dose,result
COC(=O)C(O)[C@H]1[C@]2(C)C[C@]3(O)[C@@](O)(C(=O)C4=C(CC[C@]5(C)C4=CC(=O)O[C@H]5c4ccoc4)[C@]13C)[C@H]2OC(=O)C(C)C,NL4-3,SupT1,luciferase / luminescence,pseudotyped,20 µM,0%
NC(N)=NCCC[C@H](NC(=O)[C@@H](N)Cc1ccc(O)cc1)C(=O)NCC(=O)N1CCC[C@H]1C(=O)NCC=O,ELI,HUT,p24,,250 µg/mL,44.8%
CCNc1cccnc1N1CCN(C(=O)c2cc3cc(OC)ccc3[nH]2)CC1,Seropositive clinical isolate D,PBMC,MTT,,1 µM,64%